Test results taken from patent US20130039943A1, “NOVEL METHOD” (priority 2010, published 2013).
Several values for one entry are separate records, joined by “and”; a condition that tells them apart may be missing. Equal values may be shown once. Marks after values point to notes of the source that are not given here.

How the values were obtained:
Assay type in all cases: cell-based
[1] = tested on: H5N1 influenza virus produced on EB66 cells
[2] = tested on: Influenza virus produced on MDCK cells
[3] = tested on: Influenza virus Malaysia B strain produced on MDCK cells
[4] = tested on: Influenza virus Wisconsin A strain produced on MDCK cells
[5] = tested on: Murine Leukaemia Virus (MuLV)
[6] = tested on: Porcine Pseudorabies Virus (PRV)
Hepatitis A Virus (HAV) = tested on: Hepatitis A Virus (HAV)

| Compound | LVR [1] | log TCID50/ml [1] | viral titration reduction [2] | log TCID50/ml [3] | log TCID50/ml [4] | LVR [5] | LVR [6] [log] | log TCID50/ml [6] [log TCID50/ml] | LVR (Hepatitis A Virus (HAV)) [log] | log TCID50/ml (Hepatitis A Virus (HAV)) [log TCID50/ml] |
| --- | --- | --- | --- | --- | --- | --- | --- | --- | --- | --- |
| Triton X-100 | 3.8*** log | 5.2 log TCID50/ml and 5.0 log TCID50/ml | – | – | – | – | – | – | – | – |
| O=C1CCO1 [BPL, beta-propiolactone] | – | – | about 8 logs | ≦1.8 log TCID50/ml | ≦0.8 log TCID50/ml | 2.7 log and 2.8 log and 1.6 log | 3.4 | 2.6 | 3.8 | 1.5 |
